Source: patent US20250026814A1, “Polypeptides for detection and treatment of coronavirus infection” (published 2025)

Legend:
[1] = target: Wildtype(WT)-2P spike FL trimer (SARS-CoV-2, UniProt P0DTC2 14-1213); assay: BLI; 1:1 binding
[2] = target: Wildtype(WT)-6P spike FL trimer (SARS-CoV-2, UniProt P0DTC2 14-1213); assay: BLI; 1:1 binding

B1: S728-1157 Fab (antibody, V domains shown)
VH: EVQLVESGGGLVQPGGSLRLSCAASGLLVSRNYMNWVRQAPGKGLEWVSIIYSGGSTFYADSVEGRFTISRDESKNTLYLQMNSLRTDDTAVYYCARDLSDYGGIDCWGQGTLVTVSS
VL: YELTQPLSVSMALGQTARISCGGDNVGSQNVHWYQQRPGQAPVLVIYRDSNRPSGIPERFSGSKSGNTATLTISRAQAGDEADYYCQVWDSSTVAFGGGTKLTVL
Question: How did the Kd [1] turn out when B1 was run?
Answer: 19.2 nM

Question: And the Kd [2]?
Answer: 5.7 nM
